Numbering of substitutions follows the chain as printed.
B1: mAb11004 (antibody, V domains shown)
VH: QVQLVESGGGVVQPGRSLRLSCVASGFTFSIYGMDWVRQAPGKGLEWVAVISYDGSNKYYADSVKGRFTISRDNSKNTLYLQMNSLRPEDTAVYYCAKDREAAADAFDIWGQGTMVTVSS
VL: DIQMTQSPSSVSASVGDRVTITCRASQGISSWLAWYQQKPGKAPKLLIYAASSLHSGVPSRFSGSGSGTDFTLTISSLQPEDFATYYCQQANSFRLTFGGGTKVEIKR
B2: mAb10922 (antibody, V domains shown)
VH: EVQLVESGGGLVQPGGSLRLSCAASGFTFSIYEMNWVRQAPGKGLEWVSYITSSGTTIYYADSVKGRFTISRDNAKNSLYLQMNSLRAEDTAVYYCASSSSSGYYFDYWGQGTLVTVSS
VL: not shown
B3: mAb10930 (antibody, V domains shown)
VH: EVQLVESGGGLVQPGRSLRLSCAASGFTFDDYAMYWVRQAPGKGLEWVSGISWNSGSIGYADSVKGRFTISRDNAKNSLYLQMNSLRAADTALYYCAKDKDWNSRGYYYYGMDVWGQGTTVTVSS
VL: not shown
B4: mAb10984 (antibody, V domains shown)
VH: EVQLVESGGGLVQPGGSLRLSCAASGLTVNRNYMSWVRQAPGKGLEWVSLIYSGGSTYYADSVKGRFTISRDNSKNTLYLQMNSLRLEDTAVYYCARGELGIPYGMDVWGQGTTVTVSS
VL: QSVLTQPPSVSAAPGQKVTISCSGSSSNIGNNYVSWYQQLPGTAPKLLIYDNNKRPSGIPDRFSGSKSGTSATLGITGLQTGDEADYYCGTWDSSLSAGVFGGGTKLTVLG
B5: mAb10989 (antibody, V domains shown)
VH: QVQLVQSGAEVKKPGASVKVSCKASGYIFTGYYMHWVRQAPGQGLEWMGWINPNSGGANYAQKFQGRVTLTRDTSITTVYMELSRLRFDDTAVYYCARGSRYDWNQNNWFDPWGQGTLVTVSS
VL: QSALTQPASVSGSPGQSITISCTGTSSDVGTYNYVSWYQQHPGKAPKLMIFDVSNRPSGVSDRFSGSKSGNTASLTISGLQAEDEADYYCSSFTTSSTVVFGGGTKLTVLG
B6: mAb11006 (antibody, V domains shown)
VH: EVQLVESGGGLVQPGGSLRLSCAASGFIVSRNYMSWVRQAPGKGLEWVSVIYSGGSTFYADSVKGRFTISRHNSKNTLYLQMNSLKAEDTAVYYCARELRGYFDYWGQGTLVTVSS
VL: DIQLTQSPSFLSASVGDRVTITCWASQGISSYLAWYQQKPGKAPKLLIYAASTLQSGVPSRFSGSGSGTEFTLTISSLQPEDFATYYCQLLNSYPYTFGQGTKLEIKR
B7: mAb11008 (antibody, V domains shown)
VH: EVQLVESGGGLVQPGGSLRLSCAASGFTVSSNYMTWVRQAPGKGLEWVSVIYSGGSTFYADSVKGRFTISRHNSENTLYLQMNSLRAEDTAVYYCARDLAAAGTDYWGQGALVTVSS
VL: B6 VL with E81D, L90H, P95L
B8: mAb10934 (antibody, V domains shown)
VH: not shown
VL: DIQMTQSPSSLSASVGDRVTITCQASQDIWNYINWYQQKPGKAPKLLIYDASNLKTGVPSRFSGSGSGTDFTFTISSLQPEDIATYYCQQHDDLPPTFGQGTKVEIKR
B9: mAb10966 (antibody, V domains shown)
VH: EVQLVESGGGLVQPGGSLRLSCAASGLTVSSNYMSWVRQAPGKGLEWVSVIYSGGSTFYADSVKGRFTISRDNSKNTLYLQMNSLRPEDTAVYYCAREGRIAATGYGMDVWGQGTTVTVSS
VL: B8 VL with W30S, I33L, K55G, G66R, Q89H, H91Y, D93N, P96Q, Q100P, E105D
B10: mAb10938 (antibody, V domains shown)
VH: EVQLVESGGGLVQPGGSLRLSCAVSGFTVSSNYMSWVRQAPGKGLEWVSLIYSGGSTFYADSVKGRFTISRHNSKNTLYLQMNSLRAEDTAVYYCAREGGYSYDYNYWGQGTLVTVSS
VL: B8 VL with W30R, I33L, K55E, S65I, H91Y, D93N, P96I, K103R, V104L
B11: mAb10935 (antibody, V domains shown)
VH: EVQLVESGGGLVQPGGSLRLSCAASGFTVSSNYMSWVRQAPGKGLEWVSLIYSGGSTYYADSVKGRFTISRHNSKNTLYLQMNSLRSEDTAVYYCARVPLGDYYYGMDVWGQGTTVTVSS
VL: B8 VL with W30N, N31K, I33L, K55E, H91S, D93N, P96L, Q100G
B12: mAb10954 (antibody, V domains shown)
VH: EVQLVESGGGLVQPGGSLRLSCAASGITVSSNYMSWVRQAPGKGLEWVSLIYSGGSTYYADSVKGRFTISRDNSKNTLYLQMNSLRVEDTAVYYCARDHGMAAAGYNYWGQGTLVTVSS
VL: B8 VL with W30N, N31K, I33L, K55E, S76N, I83F, Y87F, H91Y, D93N, T97A
B13: mAb10971 (antibody, V domains shown)
VH: EVQLVESGGGLIQPGGSLRLSCAASGVTVSSNYMSWVRQAPGKGLEWVSVIYSGGSTFYSDSVKGRFSISRDNSKNTLYLQMNSLRAEDTAVYYCARDLYYYGMDVWGQGTTVTVSS
VL: DIQLTQSPSFLSASVGDRVTITCRASQGISTYLAWYQQKPGKAPKLLIYAASTLQSGVPSRFSGSGSGTEFTLTISSLQPEDFATYYCQQLDSYPGLTFGGGTKVEIKR
B14: mAb10985 (antibody, V domains shown)
VH: EVQLVESGGGLVQPGRSLRLSCAASGFTFDDYAMHWVRQAPGKGLEWVSGISWNRGSIGYADSVKGRFTISRDNAKNSLYLQMSSLRAEDTALYYCAKDGERWDSVVVPSARNGMDVWGQGTTVTVSS
VL: QSVLTQPPSVSGAPGQRVTISCTGSSSNIGAGYDVHWYQQLPGTAPKLLIYGNSNRPSGVPDRFSGSKSGTSASLAITGLQAEDEADYYCQSYDSSLSGSYVFGTGTKVTVLG
B15: mAb10982 (antibody, V domains shown)
VH: EVQLVESGGGLVQPGGSLRLSCAASGLTVSSNYMSWVRQAPGKGLEWVSVIYSGGTTYYADSVKGRFTISRHNSKNTLSLQMNSLRAEDTAVYYCARGEGANYYGMDVWGQGTTVTVSS
VL: B14 VL with A31T, S100Y, Y101V, T105G, V109L
B16: mAb10939 (antibody, V domains shown)
VH: EVQLVESGGGLVQPGGSLRLSCAASGLTVSSNYMNWVRQVPGKGLEWVSVIYSGGSKFYVDSVKGRFTISRHNSKNTLYLQMNSLRPEDTAVYYCTRDAQYYGMDVWGQGTTVTVSS
VL: DIQMTQSPSSLSASVGDRVTITCRASQSISTYLHWYQQKPGEAPKLLIYAASSLQSGVPSRFSGSGSGTDFTLTISSLQPEDFATYYCQQSYSTPPEIFGQGTKLEIKR
B17: mAb10998 (antibody, V domains shown)
VH: EVQLVESGGGLVHPGGSLRLSCAASGLTVSSNYMSWVRQAPGKGLEWVSVIYSGGSTYYADSVKGRFTISRHNSKNTLFLQMNSLRAEDTAVYYCARDRPITGTTLDVWGQGTTVTVSS
VL: B16 VL with S12F, T31S, H34N, E42K, T85F, S91T, E97I, I98T, K104R
B18: mAb10922 (antibody, V domains shown)
VH: B2 VH
VL: not shown
B19: mAb10922 (antibody, V domains shown)
VH: B2 VH
VL: not shown

target: UNMODIFIED-SARS-CoV-2 Spike Protein (RBD)(R319-F541).mmH (SARS-CoV-2); experiment: Luminex beads, supernatant

Compared with B1, B2 is higher in “Binding signal (MFI)” value: 6510 MFI for the first, 33200 MFI for the second.

Compared with B3, B4 is lower in “Binding signal (MFI)” value: 29500 MFI for the first, 25800 MFI for the second.

Compared with B5, B6 is lower in “Binding signal (MFI)” value: 19700 MFI for the first, 2040 MFI for the second.

Compared with B7, B8 is higher in “Binding signal (MFI)” value: 7100 MFI for the first, 33100 MFI for the second.

Compared with B9, B10 is higher in “Binding signal (MFI)” value: 29500 MFI for the first, 34500 MFI for the second.

Going from B11 to B12, the “Binding signal (MFI)” value falls from 31900 MFI to 28500 MFI.

B13 and B14 are the same in “Binding signal (MFI)” value: 27400 MFI for the first, 27400 MFI for the second.

Going from B15 to B16, the “Binding signal (MFI)” value rises from 27500 MFI to 33600 MFI.

In the case of B17, the “Binding signal (MFI)” value is reported as 2560 MFI.

target: SARS-COV-2 RBD extracellular domain expressed with a C-terminal mouse IgG2a (SARS-CoV-2); experiment: SPR Biacore, mAb captured via anti-hFc, 25 C

B18 showed a Kd of 0.0176 nM.

With B18 the “t½” value was 3.41 h.

target: SARS-COV-2 RBD extracellular domain expressed with a C-terminal mouse IgG2a (SARS-COV-2 RBD-mFc) (SARS-CoV-2); experiment: SPR, captured mAb, RBD-mFc in solution, 37 C

Binder B19 has a Kd of 0.0349 nM.

B19 was tested, and the “t½” value was 1.2 h.
